PubChem BioAssay AID624099, ICCB-Longwood – 2012
This is a random part of about 21,000 deposited reagents. In the full data, 497 (2.4%) were called active. 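Higher z means weaker E2 silencing; only reporter increases were scored, and knock-downs that hurt cell survival may mask genuine repressor factors.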 Unmarked entries are inactive.

Purpose: 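Human genes that papillomavirus E2 requires to repress the HPV18 LCR promoter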 (primary screen)
Cell system: human C33A cervical carcinoma cells (HPV-negative) stably expressing BPV1 E2 and an HPV18 LCR luciferase reporter
Reagent: siRNA pool against human genes, 40 nM
Timing: 72 h
Detection: 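Per-well luciferase luminescence, z-scored on each plate against the plate mean and SD with control wells left out, then averaged across three replicate plates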
Reading the numbers: mean z-score and z-score: higher = stronger reporter signal, weaker E2 silencing
Call rule: 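Hit if mean z-score reaches 2 and two or more of three replicate z-scores also reach 2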

| gene | mean z-score | z-score, replicate A | z-score, replicate B | z-score, replicate C |
| --- | --- | --- | --- | --- |
| GSDMC (GeneID 56169) | 1.2 | 1.46 | 1.33 | 0.82 |
| H3C6 (GeneID 8353) | -0.53 | -0.59 | -0.27 | -0.73 |
| DPY19L4 (GeneID 286148) | -0.3 | -0.31 | -0.42 | -0.18 |
| VSTM2B-DT (GeneID 284395) | -0.69 | -0.66 | -0.58 | -0.83 |
| SCAMP5 (GeneID 192683) | 0.67 | 0.51 | 0.76 | 0.74 |
| CPLANE2 (GeneID 79363) | 0.01 | -0.23 | 0.4 | -0.16 |
| PPP4R4 (GeneID 57718) | -1.2 | -1.33 | -1.17 | -1.1 |
| LINC02595 (GeneID 401585) | 0.12 | 0.03 | 0.34 | -0.02 |
| PPP1R7 (GeneID 5510) | -0.61 | -0.6 | -0.69 | -0.54 |
| HTR2C (GeneID 3358) | -0.4 | -0.06 | -0.35 | -0.79 |
| RFFL (GeneID 117584) | -0.5 | -0.68 | -0.49 | -0.33 |
| SIGLEC16 (GeneID 400709) | -1.16 | -1.24 | -1.11 | -1.11 |
| NR1D1 (GeneID 9572) | 0.36 | 0.24 | 0.46 | 0.39 |
| LOC390705 (GeneID 390705) | -0.35 | -0.84 | -0.23 | 0.03 |
| RASL11A (GeneID 387496) | -1.6 | -1.54 | -1.53 | -1.73 |
| MIS12 (GeneID 79003) | 0.22 | 0.38 | 0.19 | 0.09 |
| MYOZ2 (GeneID 51778) | 0.98 | 1.17 | 1.2 | 0.56 |
| KRT81 (GeneID 3887) | -1.85 | -2 | -1.49 | -2.07 |
| ZNF516 (GeneID 9658) | -0.21 | -0.29 | -0.34 | 0 |
| GPR139 (GeneID 124274) | -0.01 | 0.35 | 0.34 | -0.72 |
| THAP3 (GeneID 90326) | -1.32 | -1.3 | -1.47 | -1.2 |
| LOC400575 (retired record) (GeneID 400575) | 0.22 | 0.22 | 0.29 | 0.16 |
| OR10A5 (GeneID 144124) | 1.09 | 0.74 | 1.07 | 1.47 |
| H4C3 (GeneID 8364) | -0.96 | -0.94 | -0.94 | -0.99 |
| MED28 (GeneID 80306) | -4.36 | -4.42 | -4.41 | -4.25 |
| TAF5L (GeneID 27097) | 0.32 | 0.16 | 0.43 | 0.37 |
| CIBAR1P1 (GeneID 729073) | 0.62 | 0.7 | 0.73 | 0.44 |
| SYT12 (GeneID 91683) | 0.58 | 0.59 | 0.5 | 0.66 |
| OAS3 (GeneID 4940) | -0.38 | -0.57 | -0.58 | 0 |
| H1-4 (GeneID 3008) | -0.09 | -0.27 | -0.02 | 0.04 |
| LOC399920 (retired record) (GeneID 399920) | 0.73 | 0.69 | 0.52 | 0.99 |
| HSD17B13 (GeneID 345275) | 2.73 (active) | 3.03 | 3.06 | 2.1 |
| ADAM29 (GeneID 11086) | 1.77 | 1.42 | 2.02 | 1.87 |
| RGS10 (GeneID 6001) | 0.37 | 0.46 | 0.18 | 0.48 |
| COMMD5 (GeneID 28991) | -0.43 | -0.58 | -0.67 | -0.04 |
| MORN5 (GeneID 254956) | -0.18 | -0.16 | -0.08 | -0.28 |
| MAGEH1 (GeneID 28986) | 0.12 | 0.19 | 0.12 | 0.04 |
| CSF2RA (GeneID 1438) | -0.73 | -0.78 | -0.79 | -0.63 |
| DNMBP (GeneID 23268) | -1.57 | -1.34 | -1.72 | -1.66 |
| ASAH2 (GeneID 56624) | -1.13 | -1.2 | -1.01 | -1.17 |
| LOC402571 (retired record) (GeneID 402571) | 0.79 | 1.02 | 0.8 | 0.55 |
| LOC400768 (retired record) (GeneID 400768) | -0.01 | 0.42 | -0.09 | -0.35 |
| LOC402477 (retired record) (GeneID 402477) | -0.83 | -0.79 | -0.96 | -0.75 |
| ZNF224 (GeneID 7767) | -0.26 | -0.34 | -0.19 | -0.27 |
| OR2J3 (GeneID 442186) | 0.78 | 0.36 | 0.59 | 1.4 |
| SH3PXD2A (GeneID 9644) | -0.35 | -0.28 | -0.13 | -0.64 |
| WDTC1 (GeneID 23038) | -1.46 | -1.54 | -1.4 | -1.42 |
| LUZP1 (GeneID 7798) | 0.38 | 0.41 | 0.37 | 0.35 |
| LSP1 (GeneID 4046) | 0.46 | 0.35 | 0.67 | 0.36 |
| TACC3 (GeneID 10460) | -0.14 | -0.18 | -0.11 | -0.13 |
| TBC1D16 (GeneID 125058) | -0.69 | -0.65 | -0.8 | -0.61 |
| ABCA10 (GeneID 10349) | 0.32 | 0.36 | 0.28 | 0.32 |
| GALK1 (GeneID 2584) | 1.28 | 1.19 | 0.99 | 1.65 |
| DRD5 (GeneID 1816) | 0.93 | 0.78 | 0.91 | 1.09 |
| DNAJC1 (GeneID 64215) | 1.75 | 1.69 | 1.45 | 2.11 |
| CHCHD6 (GeneID 84303) | 0.66 | 0.78 | 0.4 | 0.81 |
| SFR1 (GeneID 119392) | 0.34 | 0.3 | 0.39 | 0.31 |

3 neighbouring entries from above, for reference:
| gene | mean z-score | z-score, replicate A | z-score, replicate B | z-score, replicate C |
| --- | --- | --- | --- | --- |
| MED28 (GeneID 80306) | -4.36 | -4.42 | -4.41 | -4.25 |
| TAF5L (GeneID 27097) | 0.32 | 0.16 | 0.43 | 0.37 |
| CIBAR1P1 (GeneID 729073) | 0.62 | 0.7 | 0.73 | 0.44 |
